Measured data: PubChem BioAssay AID1259414 (Drosophila RNAi Screening Center, 2018)
In all, the deposit lists about 24,000 reagents; this is a random part of those with a known target gene and a result. Of all reagents, about 1,210 (5%) were called active. 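Inactive calls also include excluded dsRNAs with several or no targets, genes unexpressed in JW18, and well A1, regardless of score.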

- Assay: 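Host factors increasing or decreasing Wolbachia levels in cultured fly cells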 (primary screen)
- Cell system: Drosophila JW18 cells infected with Wolbachia
- Reagents: long dsRNA against Drosophila genes, 0.25 µg dsRNA per well of a 384-well plate
- Timing: 5 days
- Challenge: cells persistently infected with Wolbachia before knock-down; no added drug
- Measured: 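Automated imaging of bacterial rRNA staining divided by host cell count, reported as plate-normalised robust z-score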
- Reading the numbers: Wolbachia per cell robust z: higher = more Wolbachia per host cell than the plate typical
- Active means: 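Hit when robust z is 1.5 or more, or -1.5 or less, in at least two of three replicates; excludes dsRNAs with several or no targets, genes not expressed in JW18 and well A1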

Or85e (Odorant receptor 85e) [DRSC16768] | Wolbachia per cell robust z, rep 1 = -1.7; Wolbachia per cell robust z, rep 2 = -7.73; Wolbachia per cell robust z, rep 3 = -0.0137; outcome = inactive
gukh (GUK-holder) [DRSC14768] | Wolbachia per cell robust z, rep 1 = -0.0276; Wolbachia per cell robust z, rep 2 = -3.25; Wolbachia per cell robust z, rep 3 = -0.393; outcome = inactive
gukh (GUK-holder) [DRSC15806] | Wolbachia per cell robust z, rep 1 = 0.474; Wolbachia per cell robust z, rep 2 = -0.184; Wolbachia per cell robust z, rep 3 = -0.44; outcome = inactive
gukh (GUK-holder) [DRSC15944] | Wolbachia per cell robust z, rep 1 = 0.554; Wolbachia per cell robust z, rep 2 = -1.25; Wolbachia per cell robust z, rep 3 = 4.06; outcome = inactive
fz (frizzled) [DRSC11348] | Wolbachia per cell robust z, rep 1 = 1.76; Wolbachia per cell robust z, rep 2 = 1.18; Wolbachia per cell robust z, rep 3 = -0.871; outcome = inactive
fz (frizzled) [DRSC39155] | Wolbachia per cell robust z, rep 1 = 1.21; Wolbachia per cell robust z, rep 2 = -0.052; Wolbachia per cell robust z, rep 3 = -3.75; outcome = inactive
CG31099 [DRSC14252] | Wolbachia per cell robust z, rep 1 = 0.441; Wolbachia per cell robust z, rep 2 = 0.146; Wolbachia per cell robust z, rep 3 = -0.06; outcome = inactive
CG31099 [DRSC23973] | Wolbachia per cell robust z, rep 1 = -0.461; Wolbachia per cell robust z, rep 2 = 0.569; Wolbachia per cell robust z, rep 3 = -0.606; outcome = inactive
dpr11 (defective proboscis extension response 11) [DRSC12561] | Wolbachia per cell robust z, rep 1 = -2.46; Wolbachia per cell robust z, rep 2 = -1.54; Wolbachia per cell robust z, rep 3 = 0.411; outcome = inactive
dpr11 (defective proboscis extension response 11) [DRSC12562] | Wolbachia per cell robust z, rep 1 = -0.673; Wolbachia per cell robust z, rep 2 = -1.07; Wolbachia per cell robust z, rep 3 = 1.41; outcome = inactive
dpr11 (defective proboscis extension response 11) [DRSC12563] | Wolbachia per cell robust z, rep 1 = 0.637; Wolbachia per cell robust z, rep 2 = 0.727; Wolbachia per cell robust z, rep 3 = 0.711; outcome = inactive
Sry-beta (Serendipity beta) [DRSC16868] | Wolbachia per cell robust z, rep 1 = -0.588; Wolbachia per cell robust z, rep 2 = -0.0916; Wolbachia per cell robust z, rep 3 = -0.42; outcome = inactive
Sry-beta (Serendipity beta) [DRSC24321] | Wolbachia per cell robust z, rep 1 = 0.456; Wolbachia per cell robust z, rep 2 = 0.00352; Wolbachia per cell robust z, rep 3 = -0.385; outcome = inactive

An excerpt from above, limited to “Wolbachia per cell robust z, rep 3”.
gukh (GUK-holder) [DRSC14768] = -0.393
gukh (GUK-holder) [DRSC15806] = -0.44
